Pooled drug test results. Numbers come from NIAID ChemDB, via PubChem.

Shared fields: enzyme or target tests

Inhibition is in % at the dose shown (toxicity tests: loss of growth or viability). Fold resistance has wild type as its base. Conditions beyond the fields shown may differ between rows. An empty or dashed field is not shown. ICn is the concentration giving n% inhibition.

structure,target,changes,species,measure,strain or isolate,dose,method,value
CCc1nc(N)nc(N)c1-c1ccc(N2CCCCC2)cc1,DHFR,,Toxoplasma gondii,IC50,RH,,,67.6 µM
Cc1cn([C@@H]2O[C@H](CO[Si](C)(C)C(C)(C)C)[C@@]3(OS(=O)(=O)C=C3N)[C@H]2O[Si](C)(C)C(C)(C)C)c(=O)[nH]c1=O,Reverse transcriptase,RT-N137H,HIV,IC50,,,nucleotide incorporation / radiometric,1.1 µM
O=c1cc(O)nc[nH]1,Uracil phosphoribosyltransferase,,Toxoplasma gondii,IC50,RH,,,>2000 µM
CCc1nc(N)nc(N)c1-c1ccc(N2CCCCC2)c([N+](=O)[O-])c1,DHFR,,Toxoplasma gondii,IC50,RH,,,0.43 µM
NS(=O)(=O)c1ccc(CNc2nnc(NC(=O)c3ccc(I)cc3)s2)cc1,Polymerase,,Human cytomegalovirus,IC50,,,,<25 µM
Clc1ncccn1,Uracil phosphoribosyltransferase,,Toxoplasma gondii,inhibition,RH,2000 µM,,<5%
O=C(C1CCCCC1)N1C[C@H](CN2CCC(c3ccccc3)CC2)[C@@H](c2ccccc2)C1,CCR5,CCR5-D276A,,fold resistance,,,radiometric,3.13
Cl.O=c1nccc[nH]1,Uracil phosphoribosyltransferase,,Toxoplasma gondii,IC50,RH,,,>2000 µM
CC(C)(C)OC(=O)CCNc1nnc(NC(=O)/C=C/c2ccccc2Cl)s1,Polymerase,,Human cytomegalovirus,IC50,,,,>25 µM
CC(=O)c1cnccn1,Uracil phosphoribosyltransferase,,Toxoplasma gondii,IC50,RH,,,>2000 µM
CC1(C)N=C(N)N=C(N)N1c1cc(C(F)(F)F)cc(C(F)(F)F)c1,DHFR,,Toxoplasma gondii,IC50,RH,,,0.58 µM
O=C(c1ccccc1Cl)N1C[C@H](CN2CCC(O)(CCCc3ccc(-c4nn[nH]n4)cc3)CC2)[C@@H](c2ccccc2)C1,CCR5,CCR5-Y37A,,IC50,,,radiometric,0.01 µM
NS(=O)(=O)c1ccc(CCNc2nnc(NC(=O)c3ccc(Cl)c(Cl)c3)s2)cc1,Polymerase,,Human cytomegalovirus,IC50,,,,<25 µM
O=C1CCNC(=O)N1,Uracil phosphoribosyltransferase,,Toxoplasma gondii,IC50,RH,,,>2000 µM
O=C(Nc1nnc(NCCCN2CCCC2=O)s1)c1ccc(S(=O)(=O)F)cc1,Polymerase,,Human cytomegalovirus,IC50,,,,>25 µM
CN(Cc1cnc2nc(N)nc(N)c2n1)c1ccc(C(=O)N[C@@H](CCC(=O)O)C(=O)O)cc1Br,DHFR,,Toxoplasma gondii,IC50,RH,,,0.00095 µM
CN(CC(C)(CCN1CCC(N(CCO)C(=O)OCc2ccc([N+](=O)[O-])cc2)CC1)c1ccsc1)S(=O)(=O)c1ccccc1,CCR5,CCR5-Y37A,,IC50,,,radiometric,0.0033 µM
CC(C)=CCOc1cc(NC(=S)c2ccoc2C)ccc1Cl,Reverse transcriptase,RT-N137T,HIV,fold resistance,,,nucleotide incorporation / radiometric,0.27
Cn1cc(Br)c(=O)[nH]c1=O,Uracil phosphoribosyltransferase,,Toxoplasma gondii,IC50,RH,,,>2000 µM
CC[C@H]1C(=O)Nc2ccc(F)cc2N1C(=O)OC(C)C,Reverse transcriptase,RT-P95A,HIV,fold resistance,,,nucleotide incorporation / radiometric,1.1
O=c1ccn([C@@H]2O[C@H](CO)[C@@H](O)[C@H]2O)c(=O)[nH]1,Uracil phosphoribosyltransferase,,Toxoplasma gondii,IC50,RH,,,>2000 µM

3 of the rows above, restated:

structure	target	changes	species	measure	strain or isolate	dose	method	value
CC(=O)c1cnccn1	Uracil phosphoribosyltransferase		Toxoplasma gondii	IC50	RH			>2000 µM
O=C(C1CCCCC1)N1C[C@H](CN2CCC(c3ccccc3)CC2)[C@@H](c2ccccc2)C1	CCR5	CCR5-D276A		fold resistance			radiometric	3.13
CC1(C)N=C(N)N=C(N)N1c1cc(C(F)(F)F)cc(C(F)(F)F)c1	DHFR		Toxoplasma gondii	IC50	RH			0.58 µM